1 molecule from paper PMC5268466, “Monofluorophosphate Blocks Internal Polysaccharide Synthesis in Streptococcus mutans” (PLoS ONE, 2017) can be followed below.

Protein sequences, listed by entry. Tags and fused reporters are not part of them. Lines headed by an entry give the natural chain unless they say otherwise; changes in a name come on top.
UniProt M9TIK1: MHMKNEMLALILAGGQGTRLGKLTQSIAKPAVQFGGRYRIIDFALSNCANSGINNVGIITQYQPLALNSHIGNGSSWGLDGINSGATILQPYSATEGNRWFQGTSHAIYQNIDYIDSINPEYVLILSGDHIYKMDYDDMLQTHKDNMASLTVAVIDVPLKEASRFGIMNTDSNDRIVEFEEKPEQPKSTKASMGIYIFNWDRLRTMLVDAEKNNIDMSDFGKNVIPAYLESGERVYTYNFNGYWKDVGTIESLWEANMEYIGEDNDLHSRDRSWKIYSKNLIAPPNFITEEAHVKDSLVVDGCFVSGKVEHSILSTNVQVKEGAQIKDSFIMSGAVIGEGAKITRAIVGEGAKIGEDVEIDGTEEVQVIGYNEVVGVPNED

For experiment [1], the target named is T1, S. mutans ADP-Glc PPase (GlgC/GlgD) (Streptococcus mutans, UniProt M9TIK1). In words: ADP-[…]Glc synthesis assay, Dixon plot. Particulars: read-out: apparent KI; non-competitive or slightly mixed versus ATP (1, 3, 5 and 10 mM); 10 mM Mg2+; pH 8.0, 37 C.
Experiment [2] deals with T1, S. mutans ADP-Glc PPase (GlgC/GlgD). Briefly: ADP-[…]Glc synthesis assay, Hill fit. Particulars: read-out: I0.5; saturating substrates; Figure 3: 1 mM Glc-1P, 2 mM ATP, 10 mM Mg2+; pH 8.0 MOPS, 37 C; activation at low concentrations before inhibition; not reverted by Fru-1,6-bisP.

The structures appear in SMILES notation.

As for `O=P(O)(O)F`, the Ki in experiment [1] fell in the range of 5 to 7 mM. In experiment [2], the IC50 amounted to 1.5 mM.
